A mixed list of measured activities; the numbers were collected in NIAID ChemDB.

Common to all: host cell toxicity; cell line: MT-4; endpoint: CC50

CCn is the concentration with n% toxicity to the cells.

structure	method	result
CCn1cc(C(=O)O)c(=O)c2cc(F)c(N3CCN(CN4C(=O)C(=Nc5ccc(S(=O)(=O)Nc6ncccn6)cc5)c5ccccc54)CC3)cc21	-	48.5 µg/mL
N#Cc1cccn1S(=O)(=O)c1cc(Cl)ccc1[N+](=O)[O-]	MTT	1.4 µM
Cc1ccc(/C=C/C(=O)C2CCC3C4CC=C5C[C@@H](O)CC[C@]5(C)C4CC[C@]23C)cc1	-	51.7 µM
Cc1cc(C)cc(C(=O)c2c(C(C)C)c(=O)[nH]c(=O)n2Cc2cc(C)nc(C)c2)c1	MTT	9.9 µg/mL
CN(Cc1ccccc1)C(=O)c1cccn1S(=O)(=O)c1cc(Cl)ccc1[N+](=O)[O-]	MTT	17 µM
CCc1c(Cc2ccccc2)n(COCCc2ccccc2)c(=O)[nH]c1=O	MTT	43 µM
N#C/C(=C/C1CCCCC1)n1nnc2ccccc21	-	6 µM
NC(=O)c1cccn1S(=O)(=O)c1ccccc1[N+](=O)[O-]	MTT	>200 µM
C[C@H](Cn1cnc2c(N)nc(N)nc21)OCP(=O)(O)O	-	>300 µM
CCc1c(Cc2cc(C)cc(C)c2)n(COCC2CC2)c(=O)[nH]c1=O	MTT	51 µM
Cc1cc(C)cc(C(=O)c2c(C(C)C)c(=O)[nH]c(=O)n2Cc2ccc([N+](=O)[O-])cc2)c1	MTT	5.65 µg/mL
CC(=O)NC1C(O)OC(CO)C(O)C1OC1OC(C(=O)[O-])C(OC2OC(CO)C(O)C(OC3OC(C(=O)[O-])C(O)C(O)C3O)C2NC(C)=O)C(O)C1O.[Na+].[Na+]	-	>250 µg/mL
CCc1cc(NCc2cccnc2OC)c(=O)[nH]c1C	-	>50 µM
CCOC(=O)CC1Nc2ccccc2S(=O)(=O)n2cccc21	-	>312 µM
CCC(C)OC(=O)c1cccn1S(=O)(=O)c1cc(Cl)ccc1N	MTT	71.3 µM
Nc1nc2c(ncn2C[C@@H](CF)OCP(=O)(O)O)c(=O)[nH]1	-	103 µM
COc1cc2c(cc1OC)C1=NOC(c3ccco3)C1C2	MTT	10.76 µM
Nc1nc2c(ncn2C[C@@H](CO)OCP(=O)(O)O)c(=O)[nH]1	-	147 µM
CCCCOC(=O)c1cccn1S(=O)(=O)c1cc(Cl)ccc1N	MTT	>200 µM
C[C@@H]1C=CC(C)(C)N2CN1n1cc(C(=O)NCc3ccc(F)cc3F)c(=O)c(O)c1C2=O	luminescence	37.2 µM
CCOC(=O)C12CC(=O)N1c1ccccc1S(=O)(=O)n1cccc12	-	23 µM
CC(C)C[C@H](NC(=O)[C@@H](NC(=O)[C@H](Cc1c[nH]c2ccccc12)NC(=O)CCCCC(=O)Nc1ccn([C@H]2CC[C@@H](CO[Si](c3ccccc3)(c3ccccc3)C(C)(C)C)O2)c(=O)n1)C(C)C)[C@@H](O)CC(=O)NC(Cc1ccccc1)c1ccccc1	-	100 µM
C[C@@H](Cn1cnc2c(=O)[nH]c(N)nc21)OCP(=O)(O)O	-	123 µM
CCc1c(Cc2ccc(OC)c(OC)c2)n(COCCc2ccccc2)c(=O)[nH]c1=O	MTT	73 µM
C[C@]12CCC3C(CC=C4C[C@@H](O)CC[C@@]43C)C1CCC2C(=O)/C=C/c1ccc2c(c1)Cc1ccccc1-2	-	7.62 µM
Nc1ccc(Cl)cc1S(=O)(=O)n1cccc1C(=O)OCC1CC1	MTT	39 µM
N#C/C(=C\c1ccccc1F)n1nnc2ccccc21	-	2.5 µM
CNC(=O)c1cc(F)ccc1CNC(=O)c1nc2n(c(=O)c1O)CCN(C)C2(C)C	microscopy	>1 µM
Nc1nc(N)c2ncn(C[C@@H](CO)OCP(=O)(O)O)c2n1	-	56 µM
O=C(NCCCCCCN1CCC[C@H]2C[C@@H]3C[C@@H](CN4CCCC[C@H]34)[C@@H]21)c1c(F)cc(Br)cc1F	luminescence	>20 µM
NNC(=O)c1cccn1S(=O)(=O)c1cc(Cl)ccc1N	MTT	>200 µM
O=c1[nH]cnc2c1ncn2[C@@H]1O[C@H](CO)[C@@H](F)[C@H]1O	-	>500 µM
CC1CCC(C(C)C)/C(=N/NC(=S)Nc2ccc(Cl)cc2)C1	-	2.4 µg/mL
Cc1cc(CNC(=O)c2nc3n(c(=O)c2O)CCN(C2CC2)CC3N(C)C(=O)C(=O)N(C)C)ccc1F	microscopy	>1 µM
CN1CC(=O)N2c3ccccc3S(=O)(=O)n3cccc3C2C1=O	-	302 µM
COCCOC(=O)c1cccn1S(=O)(=O)c1cc(Cl)ccc1N	MTT	>200 µM
CC(C)C[C@H](NC(=O)[C@@H](NC(=O)[C@H](Cc1c[nH]c2ccccc12)NC(=O)CCCCCCC(=O)Nc1ccn([C@H]2CC[C@@H](CO)O2)c(=O)n1)C(C)C)[C@@H](O)CC(=O)NC(Cc1ccccc1)c1ccccc1	-	100 µM
O=C(NCCCCN1CCCC2=C[C@@H]3C[C@@H](CN4CCCC[C@H]34)[C@@H]21)C(=O)c1ccc(C(F)(F)F)cc1	luminescence	>20 µM
Nc1nc2c(ncn2O[C@H]2CO[C@@H](CO)O2)c(=O)[nH]1	-	>100 µg/mL
Cc1ccc(S(=O)(=O)NC(Cc2ccccc2)c2nnc(Nc3ccc(Br)cc3)s2)cc1	MTT	>1.58 µg/mL
O=C(O)/C(=C\c1ccc(Br)cc1)n1nnc2ccccc21	-	0.4 µM
CCc1c(Cc2ccc(C)cc2)n(COCCc2ccccc2)c(=O)[nH]c1=O	MTT	60 µM
COCCCCCCCCCCCC(=O)O	-	140 µM
Cn1cc(C(=O)O)c(=O)c2cc(F)c(N3CC=C(c4ccccc4)CC3)c(C(F)(F)F)c21	-	0.53 µM
Nc1nc2c(ncn2C[C@H](CO)OCP(=O)(O)O)c(=O)[nH]1	-	9 µM
Cc1ccc(NC(=S)N/N=C2\CC(C)CCC2C(C)C)cc1	-	2.6 µg/mL
CCOCn1c(Cc2ccc(OC)c(OC)c2)c(CC)c(=O)[nH]c1=O	MTT	>100 µM
Cc1cc(CF)cc(C(=O)c2c(C(C)C)c(=O)[nH]c(=O)n2Cc2cc(C)nc(C)c2)c1	MTT	36.03 µg/mL
COC(=O)[C@H](C)NC(O)(Oc1ccccc1)Oc1nc(N(C)C)nc(C(C)c2c(F)cccc2F)c1C	MTT	25 µM
COc1cc2c(cc1OC)C1=NOC(c3c(Cl)cccc3Cl)C1C2	MTT	53.2 µM
C[C@]12CCC3C(CC=C4C[C@@H](O)CC[C@@]43C)C1CCC2C(=O)/C=C/c1ccc(C(F)(F)F)cc1	-	55.38 µM
Nc1ccc(Cl)cc1S(=O)(=O)n1cccc1C(=O)OC1CCCC1	MTT	53.6 µM
CCc1c(Cc2ccccc2)n(COCCCc2ccccc2)c(=O)[nH]c1=O	MTT	23 µM
O=C(O)c1cn(-c2ccc(Cn3cncn3)cc2)c2c(OC(F)F)c(N3CC=C(c4ccccc4)CC3)c(F)cc2c1=O	-	0.12 µM
CN(C)C(=O)CN1CCn2c(nc(C(=O)NCc3ccc(F)cc3)c(O)c2=O)C1(C)C	microscopy	>10 µM
Nc1ncnc2c1ncn2C[C@H](CO)OCP(=O)(O)O	-	>300 µM
COc1cc2c(cc1OC)C1=NOC(c3ccc(F)cc3)C1C2	MTT	>125 µM
N#C/C(=C\c1ccc(C(F)(F)F)cc1)n1nc2ccccc2n1	-	3.5 µM
COc1ncnc2c1ncn2O[C@H]1CO[C@@H](CO)O1	-	>100 µg/mL
N#C/C(=C\c1ccc2c(c1)OCO2)n1nc2ccccc2n1	-	>100 µM
CCn1cc(C(=O)O)c(=O)c2cc(F)c(N3CCN(CN4C(=O)/C(=N\c5ncc(Cc6cc(OC)c(OC)c(OC)c6)c(N)n5)c5ccccc54)CC3)cc21	-	66.5 µg/mL
O=C(NCCCCN1CCCC2=C[C@@H]3C[C@@H](CN4CCCC[C@H]34)[C@@H]21)c1c(F)cc(Br)cc1F	luminescence	>20 µM
O=c1[nH]cnc2c1ncn2O[C@H]1CS[C@@H](CO)O1	-	10 µg/mL
Nc1ncnc2c1ncn2[C@@H]1O[C@H](CO)[C@@H](F)[C@H]1O	-	1.6 µM
COc1cc2c(cc1OC)C1=NOC(c3ccccc3)C1C2	MTT	12.9 µM
O=C(NCc1ccc(F)cc1)c1nc2n(c(=O)c1O)CCOCC2	microscopy	>1 µM
CC(C)c1c(C(=O)c2ccccc2)n(Cc2ccncc2)c(=O)[nH]c1=O	MTT	37.4 µg/mL
COC(=O)CC1Nc2ccccc2S(=O)(=O)n2cccc21	-	220 µM
Cc1nnc(CN2CCn3c(nc(C(=O)NCc4ccc(F)cc4)c(O)c3=O)C2(C)C)o1	microscopy	>1 µM
N#C/C(=C/c1cccc2ccccc12)n1nnc2ccccc21	-	5 µM
CCn1cc(C(=O)O)c(=O)c2cc(F)c(N3CCN(CN4C(=O)C(=Nc5ccc(S(=O)(=O)Nc6ncnc(OC)c6OC)cc5)c5cc(Br)ccc54)CC3)cc21	-	33.9 µg/mL
C[C@]12CCC3C(CC=C4C[C@@H](O)CC[C@@]43C)C1CCC2C(=O)/C=C/c1ccoc1	-	12 µM
CCc1c(C(=O)c2cc(F)cc(F)c2)n(Cc2ccncc2)c(=O)[nH]c1=O	MTT	50.6 µg/mL
Nc1nc(N)c2ncn(C[C@H](CF)OCP(=O)(O)O)c2n1	-	>300 µM
O=C1CC2c3cccn3S(=O)(=O)c3ccccc3N12	-	365 µM
Nc1ncnc2c1ncn2O[C@H]1CS[C@@H](CO)O1	-	>100 µg/mL
CCOCn1c(Cc2ccc(C)cc2)c(CC)c(=O)[nH]c1=O	MTT	>100 µM
C[C@H](Cn1cnc2c(=O)[nH]c(N)nc21)OCP(=O)(O)O	-	>300 µM
N#C[C@]1(CO)O[C@@H](n2cnc3c(=O)[nH]c(N)nc32)C[C@@H]1O	-	>0.034 µM
Cc1cc(C)cc(C(=O)c2c(C(C)C)c(=O)[nH]c(=O)n2Cc2ccnc(Cl)c2)c1	MTT	17.1 µg/mL
C[C@H]1CC[C@@H](C(F)F)N2CN1C(=O)c1c(O)c(=O)c(C(=O)NCc3c(F)cc(F)cc3F)cn12	luminescence	15.7 µM
CCc1c(Sc2cc(Cl)cc(Cl)c2)n(Cc2ccncc2)c(=O)[nH]c1=O	MTT	6.5 µg/mL
CCc1cc(NCc2cc(C)c(C)nc2OC)c(=O)[nH]c1C	-	>50 µM
CCc1c(Cc2ccccc2)n(COCC2CC2)c(=O)[nH]c1=O	MTT	>100 µM
COc1cc2c(cc1OC)C1=NOC(c3cccs3)C1C2	MTT	31.02 µM
Cc1cc(Cl)cc(C(=O)c2c(C(C)C)c(=O)[nH]c(=O)n2Cc2cc(C)nc(C)c2)c1	MTT	8.68 µg/mL
CC1CCC(C(C)C)/C(=N/NC(=O)Nc2ccc(Cl)cc2)C1	-	28.4 µg/mL
COc1ncnc2c1ncn2O[C@@H]1CS[C@@H](CO)O1	-	>100 µg/mL
CCc1cc(NCc2cc(C)c(C)cc2OC)c(=O)[nH]c1C	-	>50 µM
COc1ncnc2c1ncn2O[C@@H]1CO[C@@H](CO)O1	-	>100 µg/mL
O=C(NCCCCCCN1CCCC2=C[C@@H]3C[C@@H](CN4CCCC[C@H]34)[C@@H]21)c1c(F)cc(Br)cc1F	luminescence	>20 µM

6 of the rows above, restated:

structure	method	result
CCc1c(C(=O)c2cc(F)cc(F)c2)n(Cc2ccncc2)c(=O)[nH]c1=O	MTT	50.6 µg/mL
Cc1ccc(S(=O)(=O)NC(Cc2ccccc2)c2nnc(Nc3ccc(Br)cc3)s2)cc1	MTT	>1.58 µg/mL
O=C(NCCCCCCN1CCC[C@H]2C[C@@H]3C[C@@H](CN4CCCC[C@H]34)[C@@H]21)c1c(F)cc(Br)cc1F	luminescence	>20 µM
N#C/C(=C\c1ccc2c(c1)OCO2)n1nc2ccccc2n1	-	>100 µM
COc1ncnc2c1ncn2O[C@@H]1CS[C@@H](CO)O1	-	>100 µg/mL
Nc1ccc(Cl)cc1S(=O)(=O)n1cccc1C(=O)OC1CCCC1	MTT	53.6 µM

Lines come from different laboratories, so protocols vary. Blank or dashed fields: not listed here.